The values below come from patent US20240043504A1 (published 2024).

To fix the notation:
B1: mAb10984 (antibody, V domains shown)
VH: EVQLVESGGGLVQPGGSLRLSCAASGLTVNRNYMSWVRQAPGKGLEWVSLIYSGGSTYYADSVKGRFTISRDNSKNTLYLQMNSLRLEDTAVYYCARGELGIPYGMDVWGQGTTVTVSS
VL: QSVLTQPPSVSAAPGQKVTISCSGSSSNIGNNYVSWYQQLPGTAPKLLIYDNNKRPSGIPDRFSGSKSGTSATLGITGLQTGDEADYYCGTWDSSLSAGVFGGGTKLTVLG
B2: mAb10920 (antibody, V domains shown)
VH: QVQLVESGGGVVQPGRSLRLSCAASGFTFSYYGMHWVRQAPGKGLEWVAVIWYDGSNKFYADSVKGRFTISRDNSKNTLYLQMNSLRAEDTAVYYCAAARPGYYYGMDVWGQGTTVTVSS
VL: DIQMTQSPSSLSASVGDRVTITCRASQGISNYLAWFQQKPGKAPNSLIYAASSLQRGVPSKFSGSGSGTDFTLTISSLQPEDFATYYCQQYNSYPRTFGQGTKVEIKR
B3: mAb10930 (antibody, V domains shown)
VH: EVQLVESGGGLVQPGRSLRLSCAASGFTFDDYAMYWVRQAPGKGLEWVSGISWNSGSIGYADSVKGRFTISRDNAKNSLYLQMNSLRAADTALYYCAKDKDWNSRGYYYYGMDVWGQGTTVTVSS
VL: not shown
B4: mAb10937 (antibody, V domains shown)
VH: QITLKESGPTLVKPTQTLTLTCTFSGFSLSTNVVGVGWIRQPPGKALEWLALIYWNDDKRYSPSLKSRLTITKDTSKNQVVLTMTNMDPVDTATYYCAHGPTGDYFDYWGQGTLVTVSS
VL: not shown
B5: mAb10913 (antibody, V domains shown)
VH: EVQLVESGGGLVQPGGSLRLSCAASGFTFRNYEMNWVRQAPGKGLEWVSYITSSGSTMYYADSVKGRFTISRDNAKNSLYLQMNSLRAEDTAVYYCARDGFYYYYAMDVWGQGTTVTVSS
VL: QSVLTQPPSVSAAPGQKVTISCSGSSSNIGNNYVSWYQQLPGTAPKLLIYDNNKRPSGIPDRFSGSKSGTSATLGITGLQTGDEADYYCGTWDSSLSVGRVFGTGTKVTVLG
B6: mAb10985 (antibody, V domains shown)
VH: EVQLVESGGGLVQPGRSLRLSCAASGFTFDDYAMHWVRQAPGKGLEWVSGISWNRGSIGYADSVKGRFTISRDNAKNSLYLQMSSLRAEDTALYYCAKDGERWDSVVVPSARNGMDVWGQGTTVTVSS
VL: QSVLTQPPSVSGAPGQRVTISCTGSSSNIGAGYDVHWYQQLPGTAPKLLIYGNSNRPSGVPDRFSGSKSGTSASLAITGLQAEDEADYYCQSYDSSLSGSYVFGTGTKVTVLG

The target of the experiment is MERS-CoV Spike Protein S1 (aa 1-725, His Tag) (Sino 40069-V08H) (MERS-CoV, UniProt K9N5Q8 18-725). Kind of experiment: Luminex, supernatant.
For B1, the MFI came out at 13 MFI. Next, B2: 13 MFI; B3: 14 MFI; B4: 14 MFI. Next, B5: 14 MFI; B6: 14 MFI.
